The source of these data is publication PMC7325057.

This series concerns CC(=O)N(O)CCCC[C@H](N)C(=O)O. Description: purified protein. As to conditions: 2 mM citrate, 2 mM ATP, 15 mM MgCl2, pH 7.5, 37 °C, apparent.
As for “hvKP IucA (Klebsiella pneumoniae subsp. pneumoniae; F473Y)”, the Km amounted to 1.58 ± 0.73 mM, the kcat amounted to 1.68 s⁻¹ and the kcat/Km worked out at 1060 M⁻¹ s⁻¹.

Consider “hvKP IucA (Klebsiella pneumoniae subsp. pneumoniae; R299A)”, for which the Km stood at 3.18 ± 0.63 mM, the kcat is 2.83 s⁻¹ and the kcat/Km turned out to be 891 M⁻¹ s⁻¹.

Regarding “hvKP IucA (Klebsiella pneumoniae subsp. pneumoniae; Y481R)”, the Km stood at 5.77 ± 2.01 mM, the catalytic constant (kcat) amounted to 0.46 s⁻¹ and the kcat/Km amounted to 79.4 M⁻¹ s⁻¹.
